Data as given in PubChem BioAssay AID624099 (ICCB-Longwood, 2012).
Shown is a random part of about 21,000 reagents tested. 497 of them (2.4%) were called active. 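Higher z means weaker E2 silencing; only reporter increases were scored, and knock-downs that hurt cell survival may mask genuine repressor factors.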 Reagent sequences are not shown.

Assay: 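Human genes that papillomavirus E2 requires to repress the HPV18 LCR promoter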 (primary screen)
Cell system: human C33A cervical carcinoma cells (HPV-negative) stably expressing BPV1 E2 and an HPV18 LCR luciferase reporter
Reagent: siRNA pool against human genes, 40 nM
Duration: 72 h
Measured: 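Per-well luciferase luminescence, z-scored on each plate against the plate mean and SD with control wells left out, then averaged across three replicate plates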
Scale: mean z-score and z-score: higher = stronger reporter signal, weaker E2 silencing
Hit rule: 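Mean z ≥ 2 together with z ≥ 2 in two or more of the three replicates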

FGG (GeneID 2266) [SID134312839] showed mean z-score -0.09; z-score, replicate A = -0.05; z-score, replicate B = -0.11; z-score, replicate C = -0.1; inactive.
With knock-down of COL23A1 (GeneID 91522) [SID134315177], the screen gave mean z-score -0.68; z-score, replicate A = -0.41; z-score, replicate B = -0.8; z-score, replicate C = -0.83; inactive.
Against MSLNL (GeneID 401827) [SID134328730], the entry reads mean z-score -0.25; z-score, replicate A = -0.28; z-score, replicate B = -0.04; z-score, replicate C = -0.42; inactive.
Depletion of TMPRSS11B (GeneID 132724) [SID134313946] resulted in: mean z-score 0.24; z-score, replicate A = 0.13; z-score, replicate B = 0.05; z-score, replicate C = 0.53; inactive.
LINC01118 (GeneID 388948) [SID134327168] gave mean z-score 0.09; z-score, replicate A = -0.09; z-score, replicate B = 0.07; z-score, replicate C = 0.28; inactive.
LOC158796 (retired record) (GeneID 158796) [SID134326243] showed mean z-score -0.65; z-score, replicate A = -0.89; z-score, replicate B = -0.48; z-score, replicate C = -0.56; inactive.
Knock-down of AGFG1 (GeneID 3267) [SID134316188] resulted in: mean z-score -0.21; z-score, replicate A = -0.26; z-score, replicate B = -0.09; z-score, replicate C = -0.29; inactive.
CAPN12 (GeneID 147968) [SID134311229] gave mean z-score -1.35; z-score, replicate A = -0.81; z-score, replicate B = -1.41; z-score, replicate C = -1.82; inactive.
PTPRF (GeneID 5792) [SID134313251] gave mean z-score -0.49; z-score, replicate A = -0.49; z-score, replicate B = -0.55; z-score, replicate C = -0.44; inactive.
Against BPI (GeneID 671) [SID134314328] the deposit lists mean z-score 0.15; z-score, replicate A = 0.19; z-score, replicate B = 0; z-score, replicate C = 0.26; inactive.
Against LOC402598 (retired record) (GeneID 402598) [SID134327905], the values are mean z-score -0.43; z-score, replicate A = -0.06; z-score, replicate B = -0.48; z-score, replicate C = -0.75; inactive.
Against JUNB (GeneID 3726) [SID134309826], the entry reads mean z-score -1.77; z-score, replicate A = -1.96; z-score, replicate B = -1.65; z-score, replicate C = -1.72; inactive.
With knock-down of CGB8 (GeneID 94115) [SID134317911] the results were mean z-score -0.16; z-score, replicate A = -0.03; z-score, replicate B = -0.34; z-score, replicate C = -0.12; inactive.
With knock-down of RNF39 (GeneID 80352) [SID134312197], the screen gave mean z-score 0.47; z-score, replicate A = 0.26; z-score, replicate B = 0.56; z-score, replicate C = 0.58; inactive.
Knock-down of LARP6 (GeneID 55323) [SID134324923] gave: mean z-score -0.53; z-score, replicate A = -0.81; z-score, replicate B = -0.74; z-score, replicate C = -0.05; inactive.
Depletion of LINC00173 (GeneID 100287569) [SID134329587] resulted in: mean z-score 0.38; z-score, replicate A = 0.38; z-score, replicate B = 0.37; z-score, replicate C = 0.38; inactive.
With knock-down of SMR3B (GeneID 10879) [SID134323806], the screen gave mean z-score -0.29; z-score, replicate A = -0.28; z-score, replicate B = -0.07; z-score, replicate C = -0.51; inactive.
DDT (GeneID 1652) [SID134316490] showed mean z-score 0.39; z-score, replicate A = 0.06; z-score, replicate B = 0.38; z-score, replicate C = 0.73; inactive.
Silencing of PRSS16 (GeneID 10279) [SID134311434] resulted in: mean z-score 0.28; z-score, replicate A = 0.62; z-score, replicate B = 0.22; z-score, replicate C = 0; inactive.
After knock-down of RLF (GeneID 6018) [SID134311876] the results were mean z-score -0.63; z-score, replicate A = -0.74; z-score, replicate B = -0.45; z-score, replicate C = -0.7; inactive.
Depletion of PIEZO2 (GeneID 63895) [SID134318121] gave: mean z-score 0.03; z-score, replicate A = 0.32; z-score, replicate B = 0.1; z-score, replicate C = -0.33; inactive.
Against PIEZO2 (GeneID 63895) [SID134325675], the entry reads mean z-score -0.43; z-score, replicate A = -0.52; z-score, replicate B = -0.25; z-score, replicate C = -0.52; inactive.
After knock-down of PIEZO2 (GeneID 63895) [SID134328850], the record shows mean z-score -1.03; z-score, replicate A = -1.13; z-score, replicate B = -0.73; z-score, replicate C = -1.23; inactive.

4 entries from above, reformatted.
| target | PubChem SID | mean z-score | z-score, replicate A | z-score, replicate B | z-score, replicate C | call |
| --- | --- | --- | --- | --- | --- | --- |
| RNF39 (GeneID 80352) | SID134312197 | 0.47 | 0.26 | 0.56 | 0.58 | inactive |
| LARP6 (GeneID 55323) | SID134324923 | -0.53 | -0.81 | -0.74 | -0.05 | inactive |
| LINC00173 (GeneID 100287569) | SID134329587 | 0.38 | 0.38 | 0.37 | 0.38 | inactive |
| SMR3B (GeneID 10879) | SID134323806 | -0.29 | -0.28 | -0.07 | -0.51 | inactive |
